Here are results for three compounds from BindingDB's records for 10.1016/0960-894X(95)00348-W.

Amino acid sequences for entries named in this document (tags omitted). Residues count along the entry.
UniProt P00809, 28-306 limits assumed: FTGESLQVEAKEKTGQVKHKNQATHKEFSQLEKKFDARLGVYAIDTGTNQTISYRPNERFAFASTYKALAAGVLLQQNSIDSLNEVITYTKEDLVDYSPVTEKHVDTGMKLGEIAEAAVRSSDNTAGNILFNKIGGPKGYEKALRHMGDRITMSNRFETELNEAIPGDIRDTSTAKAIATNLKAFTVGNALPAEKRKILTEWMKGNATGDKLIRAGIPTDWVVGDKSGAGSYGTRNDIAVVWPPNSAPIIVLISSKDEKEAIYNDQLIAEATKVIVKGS

The target in assay [1] is T1, Beta-lactamase 1 (Bacillus cereus, UniProt P00809). The assay is described as follows: ChEBML_40228. As to the method: (§1) Tested for the ability to inhibit Beta-lactamase of Bacillus cereus (class A enzyme) with 10 minutes pre-incubation
Assay [2] addresses T1, Beta-lactamase 1. Described as §1.

As usually defined, the IC50 is the midpoint of a concentration-inhibition curve. High values mean weaker potency in that assay, low ones greater potency in that assay.

At Beta-lactamase 1 [1], `C[C@@]1(CCl)S[C@@H]2[C@@H](Cl)C(=O)N2[C@H]1C(=O)O` gave an IC50 above 5 mM.

`C[C@@]1(CCl)S[C@@H]2[C@@H](F)C(=O)N2[C@H]1C(=O)O` had an IC50 on Beta-lactamase 1 [1] above 5 mM.

As to `C[C@@]1(CCl)S[C@@H]2[C@@H](Br)C(=O)N2[C@H]1C(=O)O`, the concentration for half-maximal inhibition (IC50) on Beta-lactamase 1 [2] is 1 mM; against Beta-lactamase 1 [1], above 5 mM.
